In ChEMBL document CHEMBL3297661, “1-Substituted-5-[(3,5-dinitrobenzyl)sulfanyl]-1H-tetrazoles and their isosteric analogs: A new class of selective antitubercular agents active against drug-susceptible and multidrug-resistant mycobacteria” (Eur J Med Chem, 2014):

What was measured:
Type in all cases: functional
[1] = tested on: Mycobacterium tuberculosis; assay: Antimycobacterial activity against multidrug-resistant Mycobacterium tuberculosis Praha 1 after 7 days by micromethod
[2] = tested on: Mycobacterium tuberculosis; assay: Antimycobacterial activity against multidrug-resistant Mycobacterium tuberculosis 234/2005 after 7 days by micromethod
[3] = tested on: Mycobacterium tuberculosis; assay: Antimycobacterial activity against multidrug-resistant Mycobacterium tuberculosis Praha 4 after 7 days by micromethod
[4] = tested on: Mycobacterium tuberculosis; assay: Antimycobacterial activity against multidrug-resistant Mycobacterium tuberculosis 8666/2010 after 7 days by micromethod
[5] = tested on: Mycobacterium tuberculosis; assay: Antimycobacterial activity against multidrug-resistant Mycobacterium tuberculosis Praha 131 after 7 days by micromethod
[6] = tested on: Mycobacterium tuberculosis; assay: Antimycobacterial activity against multidrug-resistant Mycobacterium tuberculosis 9449/2007 after 7 days by micromethod

SMILES	MIC [1] [µM]	MIC [2] [µM]	MIC [3] [µM]	MIC [4] [µM]	MIC [5] [µM]	MIC [6] [µM]
O=[N+]([O-])c1ccc(-n2nnnc2OCc2cc([N+](=O)[O-])cc([N+](=O)[O-])c2)cc1	2 (≈ 0.775 µg/mL)	1 (≈ 0.387 µg/mL)	1 (≈ 0.387 µg/mL)	0.5 (≈ 0.194 µg/mL)	2 (≈ 0.775 µg/mL)	2 (≈ 0.775 µg/mL)
O=[N+]([O-])c1ccc(-n2nnnc2SCc2cc([N+](=O)[O-])cc([N+](=O)[O-])c2)cc1	0.5 (≈ 0.202 µg/mL)	0.5 (≈ 0.202 µg/mL)	0.5 (≈ 0.202 µg/mL)	0.5 (≈ 0.202 µg/mL)	0.5 (≈ 0.202 µg/mL)	0.5 (≈ 0.202 µg/mL)

≈ marks a conversion by molar mass, not a printed value.
